# Paper PMC2759517
# pIC50: −log10 of the molar value.
# Biological target: HA-tagged PA of FluA (Influenza A virus)
# Experiment: ELISA
row,Substance,pIC50
1,PB1 7-25,< 5.52
2,PB1 1-11,6.05
3,PB1 1-6,< 5.52
4,PB1 1-16,7.34
5,PB1 1-14,7.46
6,PB1 1-8,< 5.52
7,PB1 1-12,6.19
8,PB1 3-25,6.18
9,PB1 1-13,6.86
10,PB1 5-25,6.32
11,PB1 9-25,< 5.52
12,PB1 1-20,7.47
13,PB1 1-7,< 5.52
14,PB1 1-10,< 5.52
15,PB1 11-25,< 5.52
16,PB1 1-9,< 5.52
